Results on one molecule are retold here after US20110014209A1 (MACFARLANE BURNET INSTITUTE FOR MEDICAL RESEARCH AND PUBLIC …, published 2011).

In the assay the target is T1, CD81 MBP-LEL (maltose-binding protein fused to the CD81 large extracellular loop, residues 113-201) (human, UniProt P60033 113-201).
T1 sequence: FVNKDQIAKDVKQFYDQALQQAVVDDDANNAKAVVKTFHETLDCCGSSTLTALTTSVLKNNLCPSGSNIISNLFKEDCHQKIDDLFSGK

B1: E2Δ12-his mature protein (other)
chain: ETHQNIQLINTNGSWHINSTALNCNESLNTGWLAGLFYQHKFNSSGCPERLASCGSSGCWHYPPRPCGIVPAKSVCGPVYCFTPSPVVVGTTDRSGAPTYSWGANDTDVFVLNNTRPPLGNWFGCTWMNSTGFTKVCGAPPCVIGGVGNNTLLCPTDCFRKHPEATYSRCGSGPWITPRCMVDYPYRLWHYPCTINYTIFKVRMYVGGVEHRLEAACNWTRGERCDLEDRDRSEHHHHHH
Consider B1, for which the binding result is listed as “binds”.
